## PSTVd stem 3 mutant pool in Nicotiana benthamiana

PSTVd intermediate strain, stem 3: wild type GUGGUUCCGGAACCGC, pool pattern GUGGUUCCGNANNCNN; upper and lower strand joined, each 5' to 3', the first 8 letters being the upper strand.

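Three N. benthamiana plants were inoculated with the whole mutant pool. Progeny were sequenced from the inoculated region (day 5), the margin of the inoculated leaf (day 10) and systemic leaves (day 12).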

Values are reads per thousand in the sample; higher means more abundant, 0 means not found. Each value is the mean of three plants. "Pool" is the share in the plasmid pool used as inoculum, on the same scale. The inoculated region was read from the minus strand, the other sites from the plus strand. Wild type was 17.3 per thousand in the pool and the most common sequence in every sample (inoculated region 330, 345, 235; leaf margin 794, 766, 816; systemic leaves 830, 792, 869). The authors trace changes outside the varied positions to PCR and sequencing errors or to mutation in the plant; presence does not show that a variant is infectious alone. With 27,691-54,225 reads a sample, very low values are single reads.

sequence,pool,inoculated region,leaf margin,systemic leaves
GUGGUUCCGUAAACAG,0.662,0.260,0.0106,0
GUGGUUCCGAAAACCA,0.769,0.283,0,0
GUGGUUCCGCAAGCAU,0.723,0.766,0.0963,0
GUGGUUCCGUAGGCCA,0.970,0.303,0,0
GUGGUUCCGCAUACAC,1.09,0.338,0.0335,0
GUGGUUCCGCAGCCUC,0.877,0.303,0.0106,0
GUGGGUCCGCAUGCGC,0.0154,0,0,0
GUGGUUCCGUACUCCG,0.723,0.315,0,0
GUGGUUCCGUAGGCUA,0.754,0.249,0.0347,0
GUGGUUCCGUAAGCGC,1.40,0.579,0.0389,0.0391
GUGGUUCCGAACUCUA,0.785,0.697,0.251,0
GUGGUUCCGAACACCA,1.37,0.437,0,0.0124
GUGGUUCCGGACGCGG,1.06,0.740,0,0.0391
GUGGUUCCGAAUUCGA,0.816,0.739,0.144,0
GUGGUUCCGUAUUCAG,0.816,0.872,0.150,0.0249
GUGGUUCCAGAACCGC,0.0923,0.163,0.116,0.235
GUGGUUCCGGAUCCUU,1.11,0.206,0.0295,0
GUGGUUCCGUAGUCUA,1.25,1.07,0.0226,0
GUGGUUCCGGAGGCAC,0.769,0.824,0.167,0
GUGGUUCCGGAAUCUA,2.45,1.27,0,0.0621
GUGGUUCCGAAGGCAU,0.708,0.684,1.14,1.11
GUGGUUCCGGAUGCGU,0.877,0.425,0,0
GUGGUUCCGAACGCGU,0.662,0.754,0.144,0
GUGGUUCCGAAAACAG,0.677,0.742,0.119,0
GUGGUUCCGCAGACAU,0.677,0.886,0.448,0
GUGGUUCCGUAACCUC,0.585,0.284,0,0.0204
GUGGUUCCGUAGACCA,0.785,0.264,0,0
GUGGUUCCCGAACCGC,0.0154,0.0969,0.119,0.187
GUGUUUAGGGAAAAGA,0.0154,0,0,0
GUGGUUCCGUAGUCAA,0.939,0.838,0.443,0
GUGGUUCCGAACGCGA,0.877,0.428,0.0215,0
GAGGUUCCGUAUGCUG,0.0154,0,0,0
GUGGUUCCGUAAUCGA,1.45,0.876,0.0215,0.0434
GUGGUUCCGUAAUCAC,1.08,0.945,0.293,0.0186
GUGGUUCCGCACUCUG,0.908,0.340,0,0
GUGGUUCCGUAGCCGG,0.816,0.315,0,0
GUGGGUCCGUAUUCUU,0.0154,0.00888,0,0
GUGGUUCCGAAAACGC,0.616,0.364,0,0
GUGGUUCCGCAAUCAG,0.985,0.626,0.458,0
GUGGUUCCGAAGCCAG,0.954,0.854,0.0106,1.09
GUGGUUCCGUAAGCCA,1.08,0.566,0.0347,0
GUGGUUCCGUACUCGA,1.54,0.426,0.0106,0.00621
GUGGUUCCGCAGGCUC,0.923,0.316,0.0321,0
GUGGUUCCGUACACCU,0.754,0.288,0.0200,0
GUGGUUCCGGAAACGA,0.893,0.398,0.00944,0.00621
GUGGUUCCGUAUCCAC,0.769,0.342,0,0
GUGGUUCCGGACCCUA,0.877,0.393,0.0215,0
GUGGUUCCGCAUCCUC,0.831,0.233,0,0
GUGGUUCCGGACUCUA,0.846,0.270,0.0215,0
GUGGUUCCGAAUGCGA,1.09,0.339,0.0347,0
GUGGUUCCGAACGCGC,1.74,0.410,0.0321,0.00621
GUGGUUCCGGACGCUG,1.31,0.595,0.00944,0
GUGGUUCCGAAAUCUU,1.46,1.21,1.16,1.14

A selection of 7 entries from above:

sequence	pool	inoculated region	leaf margin	systemic leaves
GUGGUUCCGUAGGCUA	0.754	0.249	0.0347	0
GUGGUUCCGGAGGCAC	0.769	0.824	0.167	0
GUGGUUCCGUAUCCAC	0.769	0.342	0	0
GUGGUUCCGGAUCCUU	1.11	0.206	0.0295	0
GUGGUUCCGUAAUCAC	1.08	0.945	0.293	0.0186
GUGGUUCCGCAAGCAU	0.723	0.766	0.0963	0
GUGGUUCCGUAAACAG	0.662	0.260	0.0106	0

Source: Wu et al. 2024 (doi:10.1371/journal.ppat.1012142), supplementary data.